Results as given in publication PMC9246220.
Construct, isoform or probe ends are uncertain for at least one entry.

Target: S-nitrosylated AphB-His6 (GSNO-treated wild type) (UniProt Q9KT56)
Assay: EMSA
Conditions: 1 mM GSNO pretreatment then DTT (binding restored); 20 nM DNA, 10 mM Tris-HCl pH 7.5, 1 mM EDTA, 50 mM KCl, 100 ug/ml BSA, 10 ug/ml poly dI-dC, 100 mM DTT when indicated; 20 min at 25 C; 5% PAGE in 0.5X TAE; recombinant protein; label: 5'-biotin

“CAATAAATTAGGTTTTGGCATGCAATCTGCTCATTAAGAAGGCTTGTGTAGAGTGGCTCA (double strand) [hmpA promoter probe]”: binds.
